Results of unrelated studies side by side (data: NIAID ChemDB).

Common to all: growth or infection tests; agent: Herpes simplex virus 1; cell line: HFF; endpoint: EC50

ECn: concentration that inhibits the pathogen or its effect by n%. An empty or dashed field is not shown. Conditions beyond the fields shown may differ between rows.

SMILES | strain or isolate | method | result
Cn1cc(C(=O)NCc2ccc(Cl)cc2)c(=O)c2cc(CN3CCOCC3)ccc21 | L6178033 | plaque count | 3 µM
CCCCCCCC/C=C\CCCCCCCOCCCOP1(=O)CO[C@@H](Cn2ccc(N)nc2=O)CO1 | F | plaque count | 0.3 µM
Nc1nc2c(ncn2/C=C2/CC2(CO)CO)c(=O)[nH]1 | - | cytopathic effect | >380 µM
Nc1nc2c(ncn2COCCO)c(=O)[nH]1 | V70843 (acyclovir-susceptible) | cytopathic effect | 1 µg/mL
COc1cc(OC)c(NC(=S)Nc2ccc(NC(C)=O)cc2)cc1Cl | Patton | - | >20 µM
Nc1nc2c(ncn2/C=C2\CC2(CO)CO)c(=O)[nH]1 | - | cytopathic effect | >380 µM
Nc1nc2c(ncn2COCCO)c(=O)[nH]1 | E-115 | plaque count | 0.2 µg/mL
OC[C@H]1O[C@@H](n2cnc3cc(Cl)c(Cl)cc32)C[C@@H]1O | - | ELISA | >100 µM
Cc1cn([C@@H]2C[C@H](CO)[C@@H](O)C2)c(=O)[nH]c1=O | - | plaque count | >10 µg/mL
CCCCCCCCCCCCCCCCOP1(=O)CO[C@@H](Cn2ccc(N)nc2=O)CO1 | HL-3 | plaque count | >1 µM
CCCCCSc1nc(N)nc2c1ncn2/C=C1/C[C@@H]1CO | - | cytopathic effect | 49.2 µM
COC(=O)CC(SCCO)n1cc(C)c(=O)[nH]c1=O | - | cytopathic effect | >200 µM
Nc1ccn(C[C@H]2COP(=O)(O)CO2)c(=O)n1 | E-377 | plaque count | 15.2 µM
Cc1cn(C(CCO)OCCO)c(=O)[nH]c1=O | - | cytopathic effect | >200 µM
O=c1[nH]c(=O)n([C@H]2C[C@H](O)[C@@H](CO)O2)cc1I | P | plaque count | 1.05 µg/mL
O=c1[nH]c(=O)n([C@H]2C[C@H](O)[C@@H](CO)O2)cc1C(O)C(Br)I | E-377 | cytopathic effect | 0.7 µM
Nc1nc2c(ncn2[C@@H](CCO)SCCO)c(=O)[nH]1 | - | cytopathic effect | >200 µM
O=C(NCc1ccc(Cl)cc1)c1cn(N2CCOCC2)c2ccc(CN3CCOCC3)cc2c1=O | KOS | plaque count | 3.3 µM
CCCCCCCCCCCCCCCCCCOCCCOP1(=O)CO[C@@H](Cn2ccc(N)nc2=O)CO1 | E-377 | plaque count | 0.3 µM
CCCCCOc1nc(N)nc2c1ncn2/C=C1/C[C@@H]1CO | - | cytopathic effect | >330 µM
COC(c1cn([C@H]2C[C@H](O)[C@@H](CO)O2)c(=O)[nH]c1=O)C(Br)Br | E-377 | cytopathic effect | >56.3 µM
COc1cc(OC)c(NC(=S)Nc2ccc(NC=O)cc2Cl)cc1Cl | Patton | ELISA | 3 µg/mL
COC(c1cn([C@H]2C[C@H](O)[C@@H](CO)O2)c(=O)[nH]c1=O)C(Cl)I | E-377 | cytopathic effect | >107 µM
CC(NC(=S)Nc1ccc(NC(=O)c2nccc3ccccc23)cc1)c1cc2ccccc2o1 | Patton | ELISA | >10 µg/mL
C=CCNc1nc(N)nc2c1ncn2/C=C1/C[C@@H]1CO | - | cytopathic effect | 227 µM
O=c1[nH]c(=O)n([C@H]2C[C@H](O)[C@@H](CO)O2)cc1C(O)C(Cl)I | E-377 | cytopathic effect | 6.9 µM
CCO[C@@H]1[C@@H](OCC)[C@H](Cc2ccccc2)O[C@@H]2CO[C@@H](c3ccc(Cl)cc3)O[C@@H]12 | - | cytopathic effect | 3 µg/mL
O=C(NCc1ccc(Cl)cc1)c1cn2c3c(cc(CN4CCOCC4)cc3c1=O)OC(c1cccnc1)C2 | 11359 (ACV-resistant) | plaque count | 6.5 µM
CC(C)Nc1nc2cc(Cl)c(Cl)cc2n1[C@H]1C[C@H](O)[C@@H](CO)O1 | - | ELISA | >100 µM
CCCCCOc1nc(N)nc2c1ncn2/C=C1/C[C@@H]1CO | - | cytopathic effect | >329.6 µM
CCCCCSc1nc(N)nc2c1ncn2/C=C1/C[C@@H]1CO | - | cytopathic effect | 49.5 µM
C=CCOc1nc(N)nc2c1ncn2/C=C1/C[C@@H]1CO | - | cytopathic effect | >366 µM
COC(c1cn([C@H]2C[C@H](O)[C@@H](CO)O2)c(=O)[nH]c1=O)C(I)I | E-377 | cytopathic effect | >93 µM
CCCCCCCCCCCCOCCCOP1(=O)CO[C@@H](Cn2ccc(N)nc2=O)CO1 | E-377 | plaque count | >1 µM
Nc1nc(NCC2CC2)c2ncn(/C=C3/C[C@@H]3CO)c2n1 | - | cytopathic effect | >349 µM
CC(=O)N[C@H]1C[C@@H](n2cnc3c(N)ncnc32)[C@H](O)[C@@H]1O | - | - | >100 µg/mL
OC[C@H]1O[C@@H](c2cc(Cl)nc3cc(Cl)c(Cl)cc23)C(O)C1O | - | virus yield | <31 µM
CCCCCCCCCCCCCCCCCCOC[C@H](COP(=O)(O)CO[C@H](CO)Cn1ccc(N)nc1=O)OCc1ccccc1 | F | plaque count | 0.04 µM
OC[C@H]1O[C@@H](n2c(SCc3ccccc3)nc3cc(Cl)c(Cl)cc32)C[C@@H]1O | - | ELISA | >100 µM
Nc1nc(NCC2CC2)c2ncn(/C=C3/C[C@@H]3CO)c2n1 | - | cytopathic effect | >349 µM
CSc1nc2cc(Cl)c(Cl)cc2n1[C@H]1C[C@H](O)[C@@H](CO)O1 | - | ELISA | >100 µM
Cc1cn([C@@H]2O[C@H](CO)[C@H]2CO)c(=O)[nH]c1=O | DM2.1 (TK-) | plaque count | 92 µg/mL
CCCSc1nc(N)nc2c1ncn2/C=C1/C[C@@H]1CO | - | cytopathic effect | >343 µM